Compound potency records, mixed from different reports. Data source: NIAID ChemDB in PubChem.

All rows: whole-cell or culture tests; organism: HIV-1; read-out: inhibition

An empty or dashed field is not shown.

compound	strain	cell line	method	setting	tested at	value
OC[C@@H]1[C@@H](O)[C@H](O)[C@@H]2[C@@H](O)CCN21	GB8	JM	syncytia		1000 µM	13%
CC(C)(C)NC(=O)[C@@H]1C[C@@H]2CCCC[C@@H]2CN1C[C@@H](O)[C@H](Cc1ccccc1)NC(=O)[C@H](CC(N)=O)NC(=O)c1ccc2ccccc2n1	BaL	Macrophage + Monocytes/macrophages	p24		0.016 µM	30%
COc1ccc(C(=O)N2CCN(c3ccc4c(c3)CCC(=O)N4)CC2)cc1OC	IIIB	CEM + CEM-SS	cytopathic effect / XTT		32 µg/mL	82%
CCn1c2ccccc2c2cc(C(=O)OC)nc(C)c21	NL4-3	CEM-GFP	p24 / ELISA / antigen		3.73 µM	0%
CCN(CC)CCNS(=O)(=O)c1ccc(-c2c3nc(c(-c4ccc(S(=O)(=O)NCCN(CC)CC)cc4)c4ccc([nH]4)c(-c4ccc(S(=O)(=O)NCCN(CC)CC)cc4)c4nc(c(-c5ccc(S(=O)(=O)NCCN(CC)CC)cc5)c5ccc2[nH]5)C=C4)C=C3)cc1	BaL	HUT/CCR5 + HUT	p24	7 d	5 µM	33%
CN1CC[C@H](c2ccccc2)[C@@H](COc2ccc3c(c2)OCCO3)C1	IIIB	MOLT-3	p24		4 µg/mL	7%
CC(C)(C)OC(=O)CNC(=O)[C@@H]1CSC(=O)N1	BaL	Macrophage + Monocytes/macrophages	RT activity		2000 µM	0%
C/C=C(\C)C(=O)O[C@@H]1[C@@H](OC(C)=O)[C@H]2[C@@H](CC[C@H]3C[C@@H](O[C@H]4C[C@@H](OC)[C@H](O[C@@H]5OC(C)[C@@H](O[C@@H]6OC(CO)[C@@H](O[C@@H]7OC(CO)[C@@H](O)[C@H](O)C7O)[C@H](O)C6O)[C@H](OC)C5O)C(C)O4)CC[C@@]32C)[C@@]2(O)CC[C@H](C(C)=O)[C@@]12C		SupT1	luciferase	pseudotyped	30 µM	28.35%
Nc1ccn([C@H]2CC[C@@H](CO)O2)c(=O)n1	LAV-1	HT4 + HT4-6C	syncytia		0.01 µM	55%
O=C1O[C@H]2[C@@H]3OC(=O)c4cc(O)c(O)c(O)c4-c4c(cc(O)c(O)c4O)C(=O)OC[C@H]2O[C@@H](OC(=O)c2cc(O)c(O)c(O)c2)[C@@H]3OC(=O)c2cc(O)c(O)c3c2[C@@H]2C1=CC(=O)[C@](O)(O3)C2(O)O		MAGI	p24		2.5 µg/mL	67%
c1cc(CN2CCCNCCNCCCNCC2)ccc1CN1CCCNCCNCCCNCC1	JR-FL CLADE B R5	PBMC	p24		0.1 µM	36%
Cc1cn([C@H]2C[C@H](N=[N+]=[N-])[C@@H](CO)O2)c(=O)[nH]c1=O	Primary clinical isolate Rome	Macrophage + Monocytes/macrophages	p24		3.7 µM	62%
CC(=O)N1C(=O)SC[C@H]1C(=O)O	BaL	Macrophage + Monocytes/macrophages	RT activity		2000 µM	66%
O=C(O)c1nn(Cc2ccc(Cl)cc2Cl)c2ccccc12		C8166	RT activity		100 µM	76%
Cc1c(C(=O)NN2CCCCC2)nn(-c2ccc(Cl)cc2Cl)c1-c1ccc(Cl)cc1	NL4-3-Luc VSV pseudotyped	Jurkat cells	luciferase		5 µM	26%
C=C/C=C(\C=C/Cc1c2nc(c(-c3ccc(S(=O)(=O)NCCN(CC)CC)cc3)c3ccc([n-]3)c(C/C=C\C(=C/C=C)S(=O)(=O)NCCN(CC)CC)c3ccc([n-]3)c(-c3ccc(S(=O)(=O)NCCN(CC)CC)cc3)c3nc1C=C3)C=C2)S(=O)(=O)NCCN(CC)CC.[O]=[V+2]	BaL	HUT/CCR5 + HUT	p24	7 d	5 µM	97%
C/C=C(\C)C(=O)O[C@@H]1[C@@H](OC(=O)/C(C)=C/C)[C@]2(C)[C@@H](C(C)=O)CC[C@]2(O)[C@]2(O)CC[C@H]3C[C@@H](O[C@H]4C[C@@H](OC)[C@H](O[C@@H]5OC(C)[C@@H](O[C@@H]6OC(CO)[C@@H](O[C@@H]7OC(CO)[C@@H](O)[C@H](O)C7O)[C@H](O)C6O)[C@H](OC)C5O)C(C)O4)CC[C@]3(C)[C@@H]12		SupT1	luciferase	pseudotyped	30 µM	39.2%
Cc1cn([C@H]2C[C@H](N=[N+]=[N-])[C@@H](CO)O2)c(=O)[nH]c1=O	NL4-3 Recombinant	Jurkat cells	luciferase		0.001 µM	30%
Fc1ccc([C@H]2CCNC[C@@H]2COc2ccc3c(c2)OCCO3)cc1	IIIB	MOLT-3	p24		4 µg/mL	30%
COC(=O)[C@@H]1C2CCC(C[C@@H]1OC(=O)c1ccccc1)N2C	IIIB	U1	p24		50 µg/mL	<0%
C/C=C(\C)C(=O)O[C@H]1[C@H]2[C@@H](CC[C@H]3C[C@@H](O[C@H]4C[C@@H](OC)[C@H](O[C@@H]5OC(C)[C@@H](O[C@@H]6OC(CO)[C@@H](O[C@@H]7OC(CO)[C@@H](O)[C@H](O)C7O)[C@H](O)C6O)[C@H](OC)C5O)C(C)O4)CC[C@@]32C)[C@@]2(O)CC[C@H](C(C)=O)[C@@]2(C)[C@@H]1OC(=O)c1ccccc1		SupT1	luciferase	pseudotyped	30 µM	32.42%
NC(=O)c1ncn([C@@H]2O[C@H](CO)[C@@H](O)[C@H]2O)n1	BaL	TZM-bl	luciferase		200 µg/mL	>75%
CCOC(=O)[C@@H]1CSC(=O)N1	BaL	Macrophage + Monocytes/macrophages	RT activity		2000 µM	14%
CO[C@@H]1C(O)[C@H](O[C@@H]2C(C)O[C@@H](O[C@H]3CC[C@@]4(C)C(=CC[C@]5(O)[C@@H]4[C@H](OC(=O)c4ccccc4)[C@@H](OC(=O)c4ccccc4)[C@]4(C)[C@@H](C(C)=O)CC[C@@]45O)C3)C[C@H]2OC)OC(C)[C@H]1O[C@@H]1OC(CO)[C@@H](O[C@@H]2OC(CO)[C@@H](O)[C@H](O)C2O)[C@H](O)C1O		SupT1	luciferase	pseudotyped	30 µM	17.02%
CCCCC[C@H](O)/C=C/C1[C@H](O)CC(=O)[C@@H]1CCCCCCC(=O)O	IIIB	C8166	syncytia		40 µM	0%
C/C=C(\C)C(=O)O[C@@H]1[C@@H](OC(=O)c2ccccc2)[C@]2(C)[C@@H](C(C)=O)CC[C@@]23O[C@]32CC[C@H]3C[C@@H](O[C@H]4C[C@@H](OC)C(O[C@@H]5OC(C)C(O[C@@H]6OC(CO)C(O[C@@H]7OC(CO)C(O)[C@H](O)C7O)[C@H](O)C6O)[C@H](OC)C5O)C(C)O4)CC[C@]3(C)[C@@H]12		SupT1	luciferase	pseudotyped	30 µM	21.19%
OC[C@@H]1[C@@H](O)[C@H](O)[C@H]2[C@H](O)CCN21	GB8	JM	syncytia		500 µM	60%
CCCCCCCCCCCCCC(=O)O[C@@H]1[C@@H](C)[C@@]2(O)[C@@H](C=C(CO)C[C@]3(O)C(=O)C(C)=C[C@@H]23)[C@@H]2C(C)(C)[C@]12OC(C)=O	RF	CD4.401(H9-RF) + CD4	syncytia		0.005 µg/mL	78%
CC1(C)Oc2ccc3ccc(=O)oc3c2[C@@H](OC(=O)C23CCC(C)(C(=O)O2)C3(C)C)[C@H]1OC(=O)C12CCC(C)(C(=O)O1)C2(C)C		Monocytes	p24	17 d	0.000016 µM	76%
COC(=O)c1cc2c3ccccc3n3c(=O)ccc(n1)c23	NL4-3	CEM-GFP	p24 / ELISA / antigen		3.59 µM	0%
NC(=O)c1ccn2c1CS[C@@H]2c1cccnc1	DAS	Monocytes/macrophages			100 µM	80%
OCCN1CCN(CC/C=C2\c3ccccc3Sc3ccc(C(F)(F)F)cc32)CC1	IIIB	MOLT-3	RT activity		10 µg/mL	67%
Cc1cn([C@H]2C[C@H](N=[N+]=[N-])[C@@H](CO)O2)c(=O)[nH]c1=O	LAV-1	HT4 + HT4-6C	syncytia		0.01 µM	54%
O=C1N[C@H](C(=O)O)CS1	BaL	Macrophage + Monocytes/macrophages	RT activity		500 µM	19%
C/C=C(\C)C(=O)O[C@@H]1[C@@H](OC(=O)c2ccccc2)[C@]2(C)[C@@H](C(C)=O)CC[C@@]23O[C@]32CC=C3C[C@@H](O[C@H]4C[C@@H](OC)C(O[C@@H]5OC(C)C(O[C@@H]6OC(CO)C(O[C@@H]7OC(CO)C(O)[C@H](O)C7O)[C@H](O)C6O)[C@H](OC)C5O)C(C)O4)CC[C@]3(C)[C@@H]12		SupT1	luciferase	pseudotyped	30 µM	13.7%
OC[C@@H]1[C@@H](O)[C@H](O)[C@H]2[C@@H](O)CCN21	GB8	JM	syncytia		1000 µM	0%
COc1ccc(OC[C@@H]2CNCC[C@H]2c2ccc(F)cc2)cc1	IIIB	MOLT-3	syncytia		4 µg/mL	24%
Cc1cn([C@H]2C[C@H](N=[N+]=[N-])[C@@H](CO)O2)c(=O)[nH]c1=O	IIIB	C8166	syncytia		0.268 µg/mL	56%
CN(C)CCC=C1c2ccccc2CCc2ccccc21	IIIB	MOLT-3	p24		10 µg/mL	6%
CC(C)=CCCn1c2ccccc2c2cc(C(=O)C3CSCCN3)nc(C)c21	NL4-3	CEM-GFP	p24 / ELISA / antigen		19.76 µM	0%
Fc1ccc([C@@H]2CCNC[C@H]2COc2ccc3c(c2)OCCO3)cc1	IIIB	MOLT-3	syncytia		4 µg/mL	29%
C/C=C(\C)C(=O)O[C@@H]1[C@@H](OC(=O)c2ccccc2)[C@]2(C)[C@@H](C(C)=O)CC[C@@]23O[C@]32CC=C3C[C@@H](O[C@H]4C[C@@H](OC)C(O[C@@H]5OC(C)C(O[C@@H]6OC(CO)C(O)[C@H](O)C6O)[C@H](OC)C5O)C(C)O4)CC[C@]3(C)[C@@H]12		SupT1	luciferase	pseudotyped	30 µM	13.5%
Cc1cn([C@H]2C[C@H](N=[N+]=[N-])[C@@H](COC(=O)C3=CN(C)C=CC3)O2)c(=O)[nH]c1=O	CD 451	PBL(PHA STIM.) + PBL	p24 / ELISA		1 µM	100%
Cc1nc(C(=O)C2COCCN2)cc2c1[nH]c1ccccc12	NL4-3	CEM-GFP	p24 / ELISA / antigen		27.12 µM	0%

Repeating the final 2 entries:

Cc1cn([C@H]2C[C@H](N=[N+]=[N-])[C@@H](COC(=O)C3=CN(C)C=CC3)O2)c(=O)[nH]c1=O ; strain: CD 451 ; cell line: PBL(PHA STIM.) + PBL ; method: p24 / ELISA ; tested at: 1 µM ; value: 100%
Cc1nc(C(=O)C2COCCN2)cc2c1[nH]c1ccccc12 ; strain: NL4-3 ; cell line: CEM-GFP ; method: p24 / ELISA / antigen ; tested at: 27.12 µM ; value: 0%

Percent inhibition refers to the dose given; in toxicity tests it is the harm to the cells. Rows are shuffled and stem from different studies.